Results deposited as PubChem BioAssay AID1259414 (Drosophila RNAi Screening Center, 2018)

Purpose: 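Host factors increasing or decreasing Wolbachia levels in cultured fly cells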 (primary screen)
Cell system: Drosophila JW18 cells infected with Wolbachia
Reagent: long dsRNA against Drosophila genes, 0.25 µg dsRNA per well of a 384-well plate
Timing: 5 days
Challenge: cells persistently infected with Wolbachia before knock-down; no added drug
Detection: 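Automated imaging of bacterial rRNA staining divided by host cell count, reported as plate-normalised robust z-score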
Reading the numbers: Wolbachia per cell robust z: higher = more Wolbachia per host cell than the plate typical
Rule for the call: 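Active if absolute robust z reaches 1.5 in two or more of three replicates, leaving out multi- or no-target dsRNAs, genes unexpressed in JW18 and A1 wells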
The deposit covers about 24,000 reagents; shown is an unselected part of those that have a named target and a result. Of all reagents, about 1,210 (5%) were called active. 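Inactive calls also include excluded dsRNAs with several or no targets, genes unexpressed in JW18, and well A1, regardless of score.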 Entries without a mark were called inactive. The numbers tell different reagents against one gene apart. Names joined by + are all predicted targets of the reagent.

no.	target gene	reagent no.	Wolbachia per cell robust z, rep 1	Wolbachia per cell robust z, rep 2	Wolbachia per cell robust z, rep 3
1	Cpr49Ae (Cuticular protein 49Ae)	1	0.542	0.82	0.0845
2	Cpr49Ae (Cuticular protein 49Ae)	2	0.558	-2.37	-0.869
3	CG42249	1	0.0839	-2.17	-0.863
4	CG42249	2	0.845	-0.588	0.224
5	CG42249	3	1.9	0.623	0.865
6	CG30054	1	0.0624	-1.16	-0.271
7	cpo (couch potato)	1	-0.763	-0.722	-0.438
8	cpo (couch potato)	2	-1.96	-1.34	-5.09
9	cpo (couch potato)	3	-1.09	-1.6	-0.0901
10	cpo (couch potato)	4	-1.45	-1.51	-0.466
11	cpo (couch potato)	5	2.17	1.01	1.63
12	CG15141	1	-1.8	-1.1	-1.15
13	CG15141	2	0.115	0.57	-0.305
14	CG15141	3	-0.612	-0.746	0.374
15	CR42653 (pseudo)	1	0.503	-0.799	1.09
16	Tpr2 (Tetratricopeptide repeat protein 2)	1	-0.676	-1.68	-0.207
17	Lsp1alpha (Larval serum protein 1 alpha)	1	1.19	-0.907	0.124
18	Lsp1alpha (Larval serum protein 1 alpha)	2	-1.04	-0.0208	-0.277
19	CG11155	1	-5.98	-0.112	-0.67
20	CG11155	2	-7.15 (active)	-2.15	-6.36
21	NfI (Nuclear factor I)	1	-1.47	0.192	-8.91
22	Synj (Synaptojanin)	1	-0.173	-7.83	0.133
23	fbl (fumble)	1	0.767	-0.851	-1.2
24	fbl (fumble)	2	1.01	0.83	0.461
25	fbl (fumble)	3	1	0.703	0.706
26	lectin-24Db	1	0.496	-0.221	-1.68
27	CG32642	1	-0.37	0.0582	-1.86
28	CG32642	2	-1.71	-2.8	-0.151
29	Ntf-2r (Nuclear transport factor-2-related)	1	-0.126	0.93	1.66
30	CG8097	1	-1.3	-2.69	1.39
31	CG33017	1	-0.68	-1.7	-0.339
32	CG33017	2	-0.482	-1.43	-2.26
33	CG7739	1	-0.129	-1.97	-0.134
34	ppk10 (pickpocket 10)	1	-0.707	-1.71	-1.16
35	regucalcin	1	0.818	-1.11	0.142
36	regucalcin	2	-1.74	-0.0912	-0.82
37	Ac13E (Adenylyl cyclase 13E)	1	-0.0588	-0.891	0.098
38	Ac13E (Adenylyl cyclase 13E)	2	1.05	0.688	0.147
39	pyd (polychaetoid)	1	-0.673 (active)	-4.97	-7.2
40	pyd (polychaetoid)	2	-2.92	1.35	0.593
41	pyd (polychaetoid)	3	-1.87	-0.665	0.608
42	pyd (polychaetoid)	4	-0.222	-0.106	0.33
43	pyd (polychaetoid)	5	0.585	-0.121	0.0364
44	pyd (polychaetoid)	6	0.467	0.138	0.141
45	pyd (polychaetoid)	7	-0.181	-0.701	-0.269
46	Ccdc58 (Coiled-coil domain-containing 58)	1	-0.301	-1.34	-0.875
47	Polr1D (RNA polymerase I and III subunit D)	1	1.16	0.828	-0.86
48	CG1998	1	-1.37	1.34	1.13
49	CR4575 (pseudo)	1	-0.765	-7.14	-0.547
50	Or49a (Odorant receptor 49a)	1	0.00443	0.0983	-0.248
51	so (sine oculis)	1	0.246	-1.27	-0.222
52	spdo (sanpodo)	1	0.0291	-0.72	0.11
53	spdo (sanpodo)	2	0.922	0.871	-0.327
54	AOX3 (Aldehyde oxidase 3)	1	-0.727	-2.19	-0.917
55	CG1137	1	-1.65	1.59	0.479
56	CG1137	2	-0.126	0.867	1.06
57	vas + solo	1	0.647	-1.94	0.814
58	vas + solo	2	0.00713	-0.227	-0.527
59	vas + solo	3	-1.16	-0.642	-0.164
60	CG31998	1	-0.0714	0.977	-6.54
61	CG31998	2	-3	-1.17	0.898
62	Ace (Acetylcholine esterase)	1	0.442	0.267	-0.0055
63	Ace (Acetylcholine esterase)	2	-2.66	-0.759	-1.34
64	CG4291	1	0.397	0.35	-0.334
65	CG4291	2	0.921	-0.365	-0.363
66	Prosalpha4T1 (Proteasome alpha4 subunit, Testis-specific 1)	1	0.734	-0.465	0.121
67	Prosalpha4T1 (Proteasome alpha4 subunit, Testis-specific 1)	2	0.169	-0.37	1.35
68	Acph-1 (Acid phosphatase 1)	1	0.16	-4.28	-0.514

Part of the list above, limited to “Wolbachia per cell robust z, rep 2”:
AOX3 (Aldehyde oxidase 3)	-2.19
CG1137 #1	1.59
CG1137 #2	0.867
vas + solo #1	-1.94
vas + solo #2	-0.227
vas + solo #3	-0.642
CG31998 #1	0.977
CG31998 #2	-1.17
Ace (Acetylcholine esterase) #1	0.267
Ace (Acetylcholine esterase) #2	-0.759
CG4291 #1	0.35
